Measured values from several laboratories, pooled; numbers as filed in NIAID ChemDB.

All rows: whole-cell or culture tests; organism: HIV-1; measure: fold resistance

Fold resistance: result on the changed form divided by that on wild type. Blank or dashed fields: not listed here. Neighbouring rows are from separate reports.

compound,read by,cell line,changes,conditions,strain,value
CC(C)CN(C[C@@H](O)[C@H](Cc1ccccc1)NC(=O)O[C@H]1CCO[C@H]2OCC[C@H]21)S(=O)(=O)c1ccc2nc(NC3CC3)sc2c1,p24 / luminescence,MT-4,L10I M46L I54V V82A,,NL4-3,5.3
Cc1cn([C@@H]2O[C@H](CO[Si](C)(C)C(C)(C)C)C3(OS(=O)(=O)C=C3N)[C@H]2O[Si](C)(C)C(C)(C)C)c(=O)n(C)c1=O,syncytia,CEM,RT-Y188H,,HEPT (RT Y188H),1875
Nc1ccn([C@H]2CC[C@@H](CO)O2)c(=O)n1,syncytia,CEM,RT-Y181C,,IIIB nevirapine-resistant (RT Y181C),0.4
C=C(C)OC(=O)N1c2cc(Cl)ccc2NC(=S)C1(C)C,syncytia,CEM,RT-Y181C,,Pyr(RT-Y181C),10.4
Nc1nc(=O)n([C@@H]2CS[C@H](CO)O2)cc1F,plaque count,HT4 + HT4 LacZ-1,RT-Y181C,,HXB2,0.222
CC(C)=CCN1Cc2cccc3[nH]c(=S)n(c23)C[C@@H]1C,syncytia,CEM,RT-E138K,,IIIB TSAO-T(RT-E138K),4.5
Nc1cccc(CN2C(=O)N(Cc3ccc4[nH]nc(-c5ccsc5)c4c3)[C@H](Cc3ccccc3)[C@H](O)[C@@H](O)[C@H]2Cc2ccccc2)c1,,MT-2,PR-M46I L63P A71V V82F I84V,,Ritonavir-resistant (PR M46I L63P A71V V82F I84V),>156
Cc1ccc(NC(=O)CSc2nnc(C)n2-c2cccc3ccccc23)c(Cl)c1,luciferase,HeLa + HeLa-JC53,RT-Y188L,,NL4-3,147
CCN1C(=O)N(Cc2ccccc2)S(=O)(=O)c2cscc21,syncytia,MT-4,RT-D67N K70R T215F K219Q,,ADP/141,0.356
Cc1cn([C@H]2C[C@H](N=[N+]=[N-])[C@@H](CO)O2)c(=O)[nH]c1=O,p24,PBMC,RT-A62V V75I F77C F116Y Q151M,,XM-Q151M,>3130
Nc1ccn([C@H]2CC[C@@H](CO)O2)c(=O)n1,,MT-4,ddI-resistant,clinical isolate,Clinical isolate,1.625
Nc1ccn([C@H]2C=C[C@@H](CO)O2)c(=O)n1,plaque count,CD4+HELA + HeLa,RT-V75T 184V,,HXB2,2.22
Cc1cc(SC2=C(O)C[C@@](CCc3ccc(N)cc3)(C(C)C)OC2=O)c(C(C)(C)C)cc1CO,cytopathic effect,CEM,PR-L10I V31I I15V K20I L24I M36I S37N I54V R57K L63P A71V V82A,,,<1
CCN[C@H]1CO[C@@H]2OCC[C@H](OC(=O)N[C@@H](Cc3ccccc3)[C@H](O)CN(CC(C)C)S(=O)(=O)c3ccc4nc(NC5CC5)sc4c3)[C@@H]21,p24 / luminescence,MT-4,L10F K20T D30N K45I A71V V77I,,NL4-3,1
O=c1[nH]cnc2c1ncn2[C@H]1CC[C@@H](CO)O1,p24,PBMC,RT-M184V,,RT-M184V XM-M184V,0.9
Cc1cn([C@H]2C=C[C@@H](CO)O2)c(=O)[nH]c1=O,plaque count,CD4+HELA + HeLa,RT-L74V,,HXB2,1.7
Cc1cn([C@H]2C=C[C@@H](CO)O2)c(=O)[nH]c1=O,,,RT-K65R F116Y Q151M,,RT-65R 116Y 151M,30
CC(=O)Oc1ccc(/C=C/C(=O)O[C@@H](C(=O)O)[C@@H](OC(=O)/C=C/c2ccc(OC(C)=O)c(OC(C)=O)c2)C(=O)O)cc1OC(C)=O,,MT-4,Dextran sulfate-resistant,,NL4-3,>9.25
Cc1ccnc2c1NC(=O)c1cccnc1N2C1CC1,β-galactosidase,MAGI (CCR5) + MAGI,RT-Y181C,,HXB2,170
Cc1ccc(-n2cnnc2SCC(=O)Nc2ccc(C)cc2Br)cc1,luciferase,HeLa + HeLa-JC53,RT-K103N Y181C,,NL4-3,>142
CC(C)c1nc(CN(C)C(=O)N[C@H](C(=O)N[C@@H](Cc2ccccc2)C[C@H](O)[C@H](Cc2ccccc2)NC(=O)OCc2cncs2)C(C)C)cs1,p24,MT-4,PR-I84V,,NL4-3,16
CN1C(=O)N(Cc2ccccc2)S(=O)(=O)c2cscc21,syncytia,CEM,RT-K103N,,,>141
Cc1ccnc2c1NC(=O)c1cccnc1N2C1CC1,cytopathic effect / XTT,CEM + CEM-SS,RT-Y181C,,UC38-R(RT-Y181C,460
O=c1[nH]cnc2c1ncn2[C@H]1CC[C@@H](CO)O1,p24,MT-4,RT-M184V,,HXB2-D184 (RT-M184V),4.41
Nc1nc(NC2CC2)c2ncn([C@H]3C=C[C@@H](CO)C3)c2n1,RT activity,PBMC,RT-M41L E44D D67N T69D Y118I M184V L210W T215Y,,4755-5 NRTI resistant recombinant,7.7
Cc1ccc(NC(=O)CSc2nnc(C)n2-c2ccc(C)c3ccccc23)c(Cl)c1,luciferase,HeLa + HeLa-JC53,RT-Y188L,,NL4-3,100
Nc1ncnc2c1ncn2CC(CF)OCP(=O)(O)O,syncytia,CEM,RT-L100I Y181C,,IIIB TIBO R82913 STR-1 (RT L100I Y181C),1
Nc1nc(=O)n([C@@H]2CO[C@H](CO)S2)cc1F,RT activity,MT-2,RT-M184I,,HXB2D (M1841I),4.09
CC(C)=CCN1Cc2cc(Cl)cc3[nH]c(=S)n(c23)C[C@@H]1C,cytopathic effect / MTT,MT-4,RT-E138A,,Recombinant mutant,2.3
O=C1N(Cc2ccccc2)c2cscc2S(=O)(=O)N1Cc1ccccc1,syncytia,CEM,RT-E138K,,,≥5.78
CC(C)OC(=O)OCOP(=O)(CO[C@H](C)Cn1cnc2c(N)ncnc21)OCOC(=O)OC(C)C,RT activity,PBMC,RT-M41L D67N T69N K70R T215F K219E,,7324-1 NRTI resistant recombinant,8.1
Cc1ccc2c(C)ccc(-n3c(C)nnc3SCC(=O)Nc3ccc(S(N)(=O)=O)cc3Cl)c2c1,luciferase,HeLa + HeLa-JC53,RT-Y188L,,NL4-3,10
CC(C)Nc1cccnc1N1CCN(C(=O)c2cc3ccccc3[nH]2)CC1,syncytia,CEM,RT-K103N,,TIBO-2(RT-K103N),92.5
Nc1nc(=O)n([C@@H]2CS[C@H](CO)O2)cc1F,,,RT-M184V T215Y K219Q,,,~20
CCCc1cc(=O)oc2c3c(c4c(c12)OC(C)(C)C=C4)O[C@H](C)[C@@H](C)[C@@H]3O,cytopathic effect / XTT,CEM + CEM-SS,RT-Y181C,,UC38-R(RT-Y181C,0.1
CCN[C@H]1CO[C@@H]2OCC[C@H](OC(=O)N[C@@H](Cc3cccc(OC)c3)[C@H](O)CN(CC(C)C)S(=O)(=O)c3ccc4nc(NC(C)C)sc4c3)[C@@H]21,p24 / luminescence,MT-4,L10I I15V K20R L24I V32I M36I M46I I54V I62V L63P K70Q V82A L88M,,NL4-3,0.5
Nc1nc2c(ncn2[C@H]2CO[C@@H](CO)O2)c(=O)[nH]1,,,RT-K65R,,K65R,7
C#C[C@@]1(CO)C=C[C@H](n2cc(C)c(=O)[nH]c2=O)O1,β-galactosidase,MAGI (CCR5) + MAGI,RT-A62V V75I F77L F116Y Q151M,,HXB2,0.73
COc1ccc2c(c1)N(C(=O)OC(C)C)[C@@H](CSC)C(=S)N2,cytopathic effect / MTT,MT-4,RT-A98S,,Recombinant mutant,0.3
CCN1C(=O)N(Cc2ccccc2Cl)S(=O)(=O)c2cscc21,syncytia,MT-4,RT-D67N K70R T215F K219Q,,ADP/141,0.575
CN[C@H]1CO[C@@H]2OCC[C@H](OC(=O)N[C@@H](Cc3cccc(OC)c3)[C@H](O)CN(CC(C)C)S(=O)(=O)c3ccc4nc(NC(C)C)sc4c3)[C@@H]21,p24 / luminescence,MT-4,L10I I15V K20R L24I V32I M36I M46I L63P K70Q V82A I84V L89M,,NL4-3,0.8
Cc1ccnc2c1NC(=O)c1cccnc1N2C1CC1,plaque count,HT4 + HT4 LacZ-1,RT-D67N K70R T215Y K219Q,,RTMC,1
Cc1cn([C@@H]2O[C@H](CO[Si](C)(C)C(C)(C)C)C3(OS(=O)(=O)C=C3N)[C@H]2O[Si](C)(C)C(C)(C)C)c(=O)n(C)c1=O,cytopathic effect / MTT,MT-4,RT-A98S,,Recombinant mutant,0.2
Nc1nc2c(ncn2[C@H]2CC[C@@H](CO)O2)c(=O)[nH]1,syncytia,CEM,RT-L100I,,TIBO-1(RT-L100I),0.25
Cc1cn([C@H]2C[C@H](N=[N+]=[N-])[C@@H](CO)O2)c(=O)[nH]c1=O,RT activity,PBMC,RT-M41L D67N T69N K70R T215F K219E,,7324-1 NRTI resistant recombinant,923
CC(C)(C)NC(=O)[C@@H]1CN(Cc2cccnc2)CCN1C[C@@H](O)C[C@@H](Cc1ccccc1)C(=O)N[C@H]1c2ccccc2C[C@H]1O,RT activity,CEM + CEM-SS,PR-G48V L90M,10 d,Saquinavir-resistant (PR G48V L90M),3
CCCN(C)C(=O)Oc1nsnc1-c1c(Cl)ccc(N)c1Cl,MTT,MAGI,RT-V108I,,IIIB,2.37
Cc1cn([C@H]2C=C[C@@H](CO)O2)c(=O)[nH]c1=O,RT activity,PBMC,RT-D67N T69N K70R M184V T215F K219Q,,7295-1 NRTI resistant recombinant,1.9
Cc1ccc(-n2c(C)nnc2SCC(=O)Nc2ccc(C)cc2Br)cc1,luciferase,HeLa + HeLa-JC53,RT-K103N Y181C,,NL4-3,250
Nc1ccn([C@H]2CC[C@@H](CO)O2)c(=O)n1,cytopathic effect / MTT,MT-4,RT-A98S,,Recombinant mutant,0.3
CCc1cc(NCc2nc3c(Cl)ccc(Cl)c3o2)c(=O)[nH]c1C,cytopathic effect / XTT,CEM + CEM-SS,RT-Y181C,,UC38-R(RT-Y181C,276
Cc1cn([C@@H]2O[C@H](CO[Si](C)(C)C(C)(C)C)C3(OS(=O)(=O)C=C3N)[C@H]2O[Si](C)(C)C(C)(C)C)c(=O)n(C)c1=O,syncytia,CEM,RT-E138K,,IIIB TSAO-T(RT-E138K),>1670
CCn1c(=O)c(C)cn([C@@H]2O[C@H](CO[Si](C)(C)C(C)(C)C)C3(OS(=O)(=O)C=C3N)[C@H]2O[Si](C)(C)C(C)(C)C)c1=O,cytopathic effect / MTT,MT-4,RT-A98S E138A,,Recombinant mutant,15
Nc1nc2c(ncn2[C@H]2CO[C@@H](CO)O2)c(=O)[nH]1,,,RT-S68G Q151M T215Y,,RT-68G 151M 215Y,5
Fc1cccc(F)c1C1SCc2nc3ccccc3n21,cytopathic effect / XTT,CEM + CEM-SS,RT-Y181C,,UC38-R(RT-Y181C,8
O=c1[nH]cnc2c1ncn2[C@H]1CC[C@@H](CO)O1,plaque count,HT4 + HT4 LacZ-1,RT-D67N K70R Y181C M184V T215F K219Q,,RTMC(181 184) (RT-D67N K70R Y181C M184V 215F 219Q),1.62
Cc1cc(C)c2ccccc2c1-n1c(C)nnc1SCC(=O)Nc1ccc(S(N)(=O)=O)cc1Cl,luciferase,HeLa + HeLa-JC53,RT-Y188L,,NL4-3,40

A second listing of 3 rows from above:

compound	read by	cell line	changes	conditions	strain	value
Nc1nc2c(ncn2[C@H]2CC[C@@H](CO)O2)c(=O)[nH]1	syncytia	CEM	RT-L100I		TIBO-1(RT-L100I)	0.25
COc1ccc2c(c1)N(C(=O)OC(C)C)[C@@H](CSC)C(=S)N2	cytopathic effect / MTT	MT-4	RT-A98S		Recombinant mutant	0.3
CCn1c(=O)c(C)cn([C@@H]2O[C@H](CO[Si](C)(C)C(C)(C)C)C3(OS(=O)(=O)C=C3N)[C@H]2O[Si](C)(C)C(C)(C)C)c1=O	cytopathic effect / MTT	MT-4	RT-A98S E138A		Recombinant mutant	15